# Measurements from PMC3153243, “Shiga Toxin Is Transported into the Nucleoli of Intestinal Epithelial Cells via a Carrier-Dependent Process” (Toxins, 2010).
# Target: the molecule itself
# Experiment: native gel or EMSA
protein,measurement,value
Shiga toxin B-subunit (recombinant StxB pentamer) (natural protein) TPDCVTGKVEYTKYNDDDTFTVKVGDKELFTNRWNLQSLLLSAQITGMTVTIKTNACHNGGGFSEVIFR,stoichiometry N,5
